The source of these data is PMC12090765, “Structure and function of an unusual R452-dependent monoclonal antibody against SARS-CoV-2” (Journal of Virology, 2025).

This experiment deals with T1, SARS-CoV-2 WT-RBD protein (SARS-CoV-2 wild type, UniProt P0DTC2).
T1 construct: source: bought: Sino Biological
Put plainly: ELISA. Particulars: both partners purified. In general terms: An ELISA detects its analyte on a solid surface through an enzyme-linked reagent.

B1: ConD-852 (IgG form) (antibody, V domains shown)
VH: QVQLVESGGGVVQPGRSLRLSCAASGFTFSSYGMHWVRQAPGKGLEWVALIWFDGSNKYYADSVKGRFTISRDNSKNTLYLQMNSLRAEDTAVYYCARDGLDLEWLFGLFDYWGQGTLVTVSS
VL: not shown
Consider B1, for which the binding result is given as “no binding”.
